Data from publication PMC4081096, “GtrS and GltR form a two-component system: the central role of 2-ketogluconate in the expression of exotoxin A and glucose catabolic enzymes in Pseudomonas aeruginosa” (Nucleic Acids Research, 2014).
For part of these data: Protein sequences can lack the tags named with them. For part of these data: The exact form of at least one protein or probe is not confirmed.

Key:
[1] = target: T1, GltR (Pseudomonas aeruginosa PAO1) (UniProt G3XCY6); assay: EMSA; details: EMSA: 2 nM 32P-DNA, 50 mM Tris-HCl pH 7.5, 10 mM NaCl, 0.1 mM EDTA, 1 mM DTT, 5% glycerol, 20 ug/ml poly(dI-dC), 200 ug/ml BSA, 1 h, recombinant protein, residues 1-242, protein details: C-terminal His6 (pET28a), label: 32P 5' end, probe letters rebuilt from the primers and the genome
T1 sequence (looked up): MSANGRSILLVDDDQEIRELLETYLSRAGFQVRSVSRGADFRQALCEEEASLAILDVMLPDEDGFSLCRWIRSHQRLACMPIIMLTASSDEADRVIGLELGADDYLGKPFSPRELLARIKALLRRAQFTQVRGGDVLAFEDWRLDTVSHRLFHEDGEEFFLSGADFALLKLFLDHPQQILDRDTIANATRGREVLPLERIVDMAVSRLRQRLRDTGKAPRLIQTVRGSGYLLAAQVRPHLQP

[2] = target: GltR D56A (Pseudomonas aeruginosa PAO1) (UniProt G3XCY6); assay: EMSA; details: GtrS-Cter + 0.2 mM ATP (no dissociation); EMSA: 2 nM 32P-DNA, 50 mM Tris-HCl pH 7.5, 10 mM NaCl, 0.1 mM EDTA, 1 mM DTT, 5% glycerol, 20 ug/ml poly(dI-dC), 200 ug/ml BSA, 1 h; recombinant protein; residues 1-242; protein details: His6 (pET28a); label: 32P 5' end; probe letters rebuilt from the primers and the genome
[3] = target: T1, GltR (Pseudomonas aeruginosa PAO1); assay: DNase I footprinting; details: 2, 4, 10 uM GltR, one operator site; recombinant protein; residues 1-242; protein details: C-terminal His6 (pET28a); label: 32P 5' end; probe letters rebuilt from the primers and the genome
[4] = target: T2, PtxR (UniProt P72131); assay: EMSA; details: with constant GltR, binding exclusive, no ternary complex; EMSA: 2 nM 32P-DNA, 50 mM Tris-HCl pH 7.5, 10 mM NaCl, 0.1 mM EDTA, 1 mM DTT, 5% glycerol, 20 ug/ml poly(dI-dC), 200 ug/ml BSA, 1 h; recombinant protein; label: 32P 5' end; probe letters rebuilt from the primers and the genome
T2 sequence (looked up, limits assumed): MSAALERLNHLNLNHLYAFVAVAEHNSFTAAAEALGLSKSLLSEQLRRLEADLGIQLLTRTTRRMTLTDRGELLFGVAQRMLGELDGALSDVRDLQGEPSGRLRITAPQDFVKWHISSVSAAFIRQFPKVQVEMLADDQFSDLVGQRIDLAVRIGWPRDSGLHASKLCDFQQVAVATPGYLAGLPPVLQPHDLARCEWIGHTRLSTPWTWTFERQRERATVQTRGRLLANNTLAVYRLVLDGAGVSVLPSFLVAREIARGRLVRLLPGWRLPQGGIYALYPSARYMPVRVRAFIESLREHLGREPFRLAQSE

| Sequence | half-maximal binding [1] [nM] | binding result ([1]; GtrS-Cter (269-465), no ATP) | binding result [2] | binding result [3] | binding result [4] |
| --- | --- | --- | --- | --- | --- |
| AGATCTCGGGTCAGCCTGCGCTTGCCACGCCTGGGGCTGGAGTGATGGGCTGGCCTGTCGGGCCCTTGAACGAGGCGGGCAGGCACGAGGTTCTCCCGTGTTCTGCGGCAGCCGCAGACAGAGGCGGAGCGGGCGCTATGGCAGTGTTTGCGCGGGCATCGATTGCTCGGGCTGAAGTTTCGTCGGCAGAAGGTTCTCGGGCCGTACATCGTCGATTTCGTCTGTCATGAGCGGATGCTGGTGATCGAACTGGATGGTGGGCAGCATGTGGGTTCGCCGGCCGATGCCTGGCTGGAGAGCCGGGGTCCAGGGTACTGCGTTTCTGGAACGACAAGGTGCTGCCGCGCAGGGAGGTGCTGCTGGAGGTCATTCTCGTGTTGTAGGAGGTTTCTGTCGCGAAACCGCCTTGCCGAGTTCAAGTCCAGATTTTCCTGCTCTGCCTCAATCCCAATGTAACCGCTCCGTGACAAACCCGGATCGCTTCGTTACCCGCGACGCGGAACGCTTGAATAGACTCGGAGCATTGCAAGCGCAGACTTGCTCCGAATAACAAGAAGAAGGTTTTCCTCATGAATGCGATCCGTCGCCTCTCTGCCGTCATCTGTCTCTGCAG (double strand) [PoprB promoter fragment] | 1000 | binds | binds | binds |  |
| CTGCAGACTCACCCTTGAGGCCCGGCGCTCCACCGGCGAATGCGGCTGTACCTCGGCGCTGGTGCGATATCGGCTGCTGGCCAGGGGCGCCAGCGCCGACAGCCTCGTGCTTCAAGAGGGGCTGCTCGATAGTCGCCAGGACACGCCGCGCACGCTGACCCTGGCGGCGGACGCCGGCTTGGCGAGCGGCCGCGAACTGGTCGTCACCCTGGGTTGTCAGGCGCCTGACTGACAGGCCGGGCTGCCACCACCAGGCCGAGATGGACGCCCTGCATGTATCCTCCGATCGGCAAGCCTCCCGTTCGCACATTCACCACTCTGCAATCCAGTTCATAAATCCCATAAAAGCTCTCTTCCGCTCCCCGCCAGCCTCCCCGCAACCCGCACCCTAGACGCCCCGCCGCTCTCCGCCGGCTCGCCCGACAAGAAAAACCAACCGCTCGATCAGCCTCATCCTTCACCCATCAAAGGAGCCATCGCGATGCACCTGACACCCCATTGAGATCT (double strand) [PtoxA promoter fragment] | 1000 |  |  |  | binds |
